{
  "source": "patent US20230374114A1",
  "about": "“Coronavirus antibodies and methods of use thereof” (Dana-Farber, published 2023)",
  "binders": {"B1": {"name": "S1-RBD-R3-E1-E8 Ab (Ab 37) (scFv, V domains shown)", "VH": "QVQLVQSGAEVKKPGASVKVSCKASGYTFTSYGISWVRQAPGQGLEWMGWISTYNGNTNYAQKLQGRVTMTTDTSTSTAYMEVRSLRSDDTAVYYCARDVFGHFDYWGQGTLVTVSS", "VL": "NFMLTQPHSVSESPGKTVLISCTRSSGNIATNYVQWYQQRPGSAPTTVIYEDNQRPSGVPDRFSGSIDSSSNSASLTISGLKTEDEADYYCKSYDDGNHVFGGGTKLTVL", "notes": "also called Ab 37 scFv-Fc"}, "B2": {"name": "RBD-R3-T1-H3 (Ab_2) (scFv, V domains shown)", "VH": "EVQLVQSGAEVKKPGSSVKVSCKTSGYTFTTSGISWVRQAPGQGLEWMGWISAYNGNTNYAQKLQGRVTMTTDTSTSTAYMELRSLRSDDTAVYYCARDFHLYYGMDVWGKGTLVTVSS", "VL": "QSALTQPPSASGSPGQSVTISCTGTSSDVGAYNYVSWYQQHPGKAPKLLIYDVTKRPPGVPDRFSGSKSGNTASLTVSGLQAEDEADYYCAVWDDGLNGRVVFGGGTKLTVL", "notes": "also called Ab 2 scFv-Fc"}, "B3": {"name": "Ab 21 (scFv, V domains shown)", "VH": "QVQLVQSGGGLVQPGGSLRLSCATSGFTFDDYAMHWVRQAPGKGLEWVSGISWNSGSIGYVDSVKGRFTISRDNRNNKVYLQMNNLRAEDTAVYYCARDWWGSIDHWGLGTLVTVSS", "VL": "QSALTQPRSVSGSPGQSVTISCTGTSSDVGGYDYVSWYQQHPGKAPKLIIYDVSKRPSGVPDRFSGSKSGNTASLTVSGLQAEDEADYYCSSYTSSSPVVFGGGTKLTVL", "notes": "also called Ab 21 scFv-Fc"}, "B4": {"name": "S1-RBD-R3-T1-C7 Ab (Ab 29) (scFv, V domains shown)", "VH": "QVQLQQSGPGLVKPSQTLSLTCAISGDSVSSYSDAWNWIRQSPSRGLEWLGRTYYRSKWYNDYAVSVKSRITINPDTSKNQFSLQLSSVTPEDTAVYYCAREIVATTPFRNYYYGMDVWGQGTTVTVSS", "VL": "NFMLTQPHSVSESPGNTVTISCTRTSGSIASNYVQWYQQRPGSSPTTVIFQDKLRPSGVPDRFSGSIDSSSNSASLTISGLKTEDEADYYCQSYDSSSLWVFGGGTKLTVL", "notes": "also called Ab 29 scFv-Fc"}, "B5": {"name": "S1-R3-T1-H7 (Ab12) (scFv, V domains shown)", "VH": "EVQLVESGPGVVSPSATLFLTCSVSGGSIRTHSWNWIRQPPGKPLEWIGFIHHSGATNKNPSLKSRVTISSDTSKNEFSLTLTSVTAADTAVYYCARGPGILSYWSRGTLVTVSS", "VL": "LPVLTQPPSASGTPGQRVTISCSGSSSNIGSNTVNWYQQLPGTAPKLLIYSNNQRPSGVPDRFSGSKSGTSASLAISGLQSEDEADYYCAAWDDSLNVHYVFGSGTKVTVL", "notes": "also called Ab 12 scFv-Fc"}, "B6": {"name": "Ab 23 (scFv, V domains shown)", "VH": "EVQLVQSGAEVKKPGSSVKVSCRSSGGTFSTYGITWVRQAPGQGLEWMGRIIPSLGIPNYAQKFQGRVTITADTSVSTAWMELSSLESDDTAIYYCARENIDLATNDFWGQGTLVTVSS", "VL": "QSALTQPPSASGSPGQSVTISCTGTSRDIGAYGYVSWYQQVPGKAPKLIIYEVRNRPSGVSSRFSGSKSGNTASLTISGLQAEDEADYYCSSYTSSSTLDVVFGGGTKLTVL", "notes": "also called Ab 23 scFv-Fc"}, "B7": {"name": "Ab_17 (scFv, V domains shown)", "VH": "QVQLVQSGGGVVQPGRSLRLSCAASGFTFDDYAMHWVRQVPGKGLEWVSGIDWNSGVIGYADSVKGRFTISRDNVKNSLYLQMNSLRTEDSALYYCAKDIGPGGSGSYYAFDIWGQGTTVTVSS", "VL": "QSALTQPASVSGSPGQSITISCTGTSSDVGGSKYVSWYQQHPGKAPKVMIYDVTKRPSGVPDRFSGSKSGNTASLTISGLQAEDEADYYCAAWDDSLNGVVFGGGTKLTVL", "notes": "also called Ab 17 scFv-Fc"}, "B8": {"name": "Ab_18 (scFv, V domains shown)", "VH": "EVQLVQSGGGVVQPGRSLRVSCAASGFSFSRYGMHWVRQAPGKGLEWVAFIRHDGSKKYYADSVEGRFTISRDNSRNTVSLEMNSLRGEDTAVYYCAKDGRLEAALDDWGQGTLVTVSS", "VL": "NFMLTQPHSMSGSAGKTVTVSCIRSSGSIANNFVQWYQQRPGSAPTTVIYEDNQRPSGVPDRFSGSIDSSSNSASLTISGLKTEDEADYYCQSYDSSNLVFGGGTRLTVL", "notes": "also called Ab 18 scFv-Fc"}, "B9": {"name": "Ab 20 (scFv, V domains shown)", "VH": "QVQLVQSGGGSVKPGGSLRLSCAASGYRLSDYYMHWVRQAPGKGLEWVANIKQDGSEKYYVDSVKGRFTISRDNAKNSLYLQMNSLRAEDTAVYYCARVRGWSRGYFDYWGQGTLVTVSS", "VL": "NFMLTQPHSVSESPGKTVTISCTGSSGSIASNYVQWYQQRPGSAPTTVIYEDNQRPSGVPDRFSGSIDSSSNSASLLISGLKTEDEADYYCQSYDSSNHWVFGGGTKLTVL", "notes": "also called Ab 20 scFv-Fc"}, "B10": {"name": "S1-RBD-R3-T1-B12 Ab (Ab_31) (scFv, V domains shown)", "VH": "QVQLVQSGAEVKKPGSSVKVSCKASGGTFSSYTISWVRQAPGQGLEWMGGIIPILGTPNYAQKFQDRVAITADKSTSTAYMELSSLRSEDTAVYYCAVGSGWYSGFDYWGQGTLVTVSS", "VL": "B9 VL with N53S, L77T, Y94F, D95H, S96N, H99P, W100V, V101I", "notes": "also called Ab 31 scFv-Fc"}, "B11": {"name": "Ab 25 (scFv, V domains shown)", "VH": "QVQLVQSGGGLVQPGGSLRLSCAASGFTFSSYWMSWVRQAPGKGLEWVANIKQDGSEKYYVDSVKGRFTISRDNAKNSLYLQMNSLRAEDTAVYYCARGFYYYGAFDIWGQGTTVTVSS", "VL": "B9 VL with D68G, L77T", "notes": "also called Ab 25 scFv-Fc"}, "B12": {"name": "Ab 28 (scFv, V domains shown)", "VH": "QVTLKESGPGLVNPSETLSLTCTVSGASISNSFWSWIRQSPGKGLEWIGYTSYSGNSIYNPSLKSRLTMSIDTSKNQLSLNLRSLTAADTAVYYCARREWIKGHFDYWGQGTLVTVSS", "VL": "B9 VL with S26G, L77T, H99P, W100V", "notes": "also called Ab 28 scFv-Fc"}, "B13": {"name": "Ab_13 (scFv, V domains shown)", "VH": "QVTLKESGPKLVKPTQTLTLTCTFSGFSLSTSGVGVGWIRQPPGKALEWLALIYWDDDKRYSPSLKSRLTIAKDTSKYQVVLTMTNMDPVDTATYYCARISGSGYFYPFDIWGQGTMVTVSA", "VL": "B9 VL with G24R, L77T, H99L"}, "B14": {"name": "Ab_16 (scFv, V domains shown)", "VH": "QVQLVQSGGGVVQPGRSLRLSCAASGFTFSNYGMHWVRQAPGKGLEWVALIWERGSKKDYADSVKGRFTVSRDNSKNTLYLQMNSLRPEDTAVYFCAREGISMTGAEYFQHWGQGTLVTVSS", "VL": "QSVLTQPPSVSGSPGQRVTMSCTGSSSNIGAGYDVHWYQQVPGAAPRLLIYGTNNRPSGVPDRFSGSKSGTSASLTITGLQAEDEADYYCQSYDNSLTDPYVFGTGTKVTVL", "notes": "also called Ab 16 scFv-Fc"}, "B15": {"name": "Ab_19 (scFv, V domains shown)", "VH": "EVQLVESGAEVKKPGESLKISCKGSGYSFTSYWIGWVRQMPGKGLEWMGIIYPGDSDTRYSPSFQGQVTISADKSISTAYLQWSSLKASDTAMYYCARRGDLDAFDIWGQGTMVTVSS", "VL": "QPGLTQPPAASGTPGQRVTVSCSGASANIGSNAVSWFKQFPETAPRLLISGNTHRPSGVPDRVSGSKSGTSASLTISGLQSDDEADYYCAAWDDSLNGYVFGSGTKVTVL", "notes": "also called Ab 19 scFv-Fc"}, "B16": {"name": "Ab 27 (scFv, V domains shown)", "VH": "QVQLVQSGTEVKKPGASVKVSCKASGYSFTGSHLHWVRQAPGQGLEWMGWINPDSGVINYAQKFQGRVTLTRDTSISTAYMELSGLRSDDTAVYYCARDKAIGYVWALDYWGQGTLVTVSS", "VL": "QSALTQPPSVSGSPGQSVTISCTGTSSDVGTYNRVSWYQQPPGKAPKLMIYEVSNRPSGVSNRFSGSKSGNTASLTISGLQAEDEADYYCSSYTRTFTYVFGTGTKVTVL", "notes": "also called Ab 27 scFv-Fc"}, "B17": {"name": "RBD-R3-E1-B3 Ab (Ab_32) (scFv, V domains shown)", "VH": "QVQLVQSGAEVKKPGESLKISCKGSGYSFTSYWIGWVRQMPGKGLEWMGIIYPGDSDTRYSPSFQGQVTISADKSISTAYLQWSSLKASDTAMYYCARGWQWHDYWGQGTLVTVSS", "VL": "QTVVTQEPAVSVALGQTVRITCQGDSLRSYYASWYQQKPGQAPVLVVYDKDKRPSGIPDRFSGSTSGNTASLTITGAQAEDEADYYCNSRDRSDNHVVFGGGTKLTVL", "notes": "also called Ab 32 scFv-Fc"}, "B18": {"name": "Ab_14 (scFv, V domains shown)", "VH": "QVQLQQSGPGLVKPSQTLSLTCAISGDSVSSNSAAWNWIRQSPARGLEWLGRTYYRSRWYNDYAISMKSRITINPDTSKNQFSLQLESVTPEDTAVYYCAREIRGFDYWGQGTLVTVSS", "VL": "QSVLTQPPSASGSPGQSVTISCTGTSSDVGAYNFVSWYQHHPGKAPKLIIYDFNKRPSGVPDRFSGSKSGNTASLTVSGLQADDEADYYCSSYAGSNNFDVVFGGGTKLTVL", "notes": "also called Ab 14 scFv-Fc"}, "B19": {"name": "S1-RBD-R3-T1-D7 Ab (Ab_34) (scFv, V domains shown)", "VH": "QVQLVQSGVEVKKPGESLKISCKGSGYSFTSYWIGWVRQMPGKGLEWMGIIYPGDSDTRYSPSFQGQVTISADKSISTAYLQWSSLKASDTAMYYCARTTYSYGSFDYWGQGTLVTVSS", "VL": "QPGLTQPPSASGTPGQGVTISCSGSSSNIGGNSVHWYQQLPGTAPKLLIYRNNQRPSGVPDRFSGSKSGTSASLAISGLRSEDEADYYCAAWDDSLNGWVFGGGTKLTVL", "notes": "also called Ab 34 scFv-Fc"}, "B20": {"name": "RBD-R3-E1-A5 Ab (Ab_30) (scFv, V domains shown)", "VH": "QVQLVQSGGGVVQPGKSLRLSCTASGFTFSDFPIHWVRQAPGKGLEWVGVISYDGNIKYYGDSVKGRFTISRDNAKNSLYLQMNSLRVEDTAVYYCARGGSSFDIWGQGTTVTVSS", "VL": "SYELTQPPSVSEAPRQRVTISCSGSTSNIGNNAVSWYQHLPGKAPKLLIYYNERLPSGVSDRFSGSKSGTSASLAISGLRSEDEADYYCAAWDDSLSGHVVFGGGTKLTVL", "notes": "also called Ab 30 scFv-Fc"}, "B21": {"name": "S1-R3-T1-C4 (Ab_8) (scFv, V domains shown)", "VH": "QVQLVQSGAEVKKPGSSVKVSCKASGGTFSSYAISWLRQAPGQGLEWMGWINPNSGGTNYAQKFQGRVTMTRDTSISTAYMELSRLRSDDTAVYYCARGSGGYYLGWGQGTLVTVSS", "VL": "QPGLTQPPSVSKGLRQTATLTCTGNSNNVGNQGAAWLQQHQGHPPKLLSYMNNNRPPGISERFSASRSGNTASLTITGLQPEDEADYYCSAWDSSLSRWVFGGGTKLSVL", "notes": "also called Ab 8 scFv-Fc"}},
  "note": "Changes are numbered by the printed parent chain.",
  "data": [
    {"target": "WT Spike (SARS-CoV2, UniProt P0DTC2 16-1213)", "test": "biosensor kinetics; scFv-Fc loaded at 1 ug/ml, spike as analyte at 48.3 nM", "values": [
      {"binder": "B1", "Response": 0.0801}
    ]},
    {"target": "WT Spike (SARS-CoV-2, UniProt P0DTC2 16-1213)", "test": "biosensor, scFv-Fc loaded at 1 ug/ml, spike in solution at 48.3 nM", "values": [
      {"binder": "B2", "Response": 0.0652},
      {"binder": "B3", "Response": 0.147},
      {"binder": "B4", "Response": 0.126},
      {"binder": "B5", "Response": 0.186},
      {"binder": "B6", "Response": 0.0845},
      {"binder": "B7", "Response": 0.248},
      {"binder": "B8", "Response": 0.216},
      {"binder": "B9", "Response": 0.0985},
      {"binder": "B10", "Response": 0.101},
      {"binder": "B11", "Response": 0.0219},
      {"binder": "B12", "Response": 0.132},
      {"binder": "B13", "Response": 0.0732},
      {"binder": "B14", "Response": 0.346},
      {"binder": "B15", "Response": 0.121},
      {"binder": "B16", "Response": 0.202},
      {"binder": "B17", "Response": 0.131},
      {"binder": "B18", "Response": 0.313},
      {"binder": "B19", "Response": 0.1},
      {"binder": "B20", "Response": 0.107},
      {"binder": "B21", "Response": 0.118}
    ]}
  ]
}
